Consider 1 molecule from patent US20240109955A1 (published 2024).

Experiment [1] addresses SARS-CoV-2 spike protein, original Wuhan strain (WA1) (SARS-CoV-2, UniProt P0DTC2 14-1273). As to the kind of experiment: cell-based or functional assay.
The target of experiment [2] is SARS-CoV-2 spike protein, D614G spike protein mutant (SARS-CoV-2, UniProt P0DTC2 14-1273). As to the kind of experiment: cell-based or functional assay.

B1: MX1086 (antibody)
chain 1: EIVMTQSPAILSVSPGERATLSCRASQSVAINLAWYQQKPGQAPRLLIYAASSRATGIPGRFSGSGSETNFTLTISSLQSGDFAVYYCQQYITWPPSYTFGQGTKLEIKGGSSGDTVMTQSPLSLPVTPGEPASISCRSSQSLLNSNGYNYLDWYVQKPGQSPQLLIYLGSNRASGVPDRFSGSGSGTDFTLKISRVEAEDVGVYYCMQPLQTPLFTFGPGTKVEIKGGGGSGGSGSGGGGSASGSGQVTLRESGPALVKPTQTLTLTCTFSGFSLSTRGVCVSWIRQPPGKALEWLAFIDWDDDKYYNTSLKTRLTISKDTSKNQVVLTMTNVHPVDTATYYCARISSHHGSSWCTTFDYWGQGALVTVSAGGSSGEVQLVESGGALIQPGGSLRLSCAASGIIVSANYMSWVRQAPGKGLEWVSVIYSGGSTFYADSVKGRFTISRDNSKNTLYLEMNSLRAEDTAVYYCARDAPILGVSDWGQGTLVTVSSASGGSGDKTHTCPPCPAPELLGGPSVFLFPPKPKDTLMISRTPEVTCVVVDVSHEDPEVKFNWYVDGVEVHNAKTKPREEQYNSYVVSVLTVLHQDWLNGKEYKCKVSNKALPAPIEKTISKAKGQPREPQVCTLPPSRDELTKNQVSLSCAVKGFYPSDIAVEWESNGQPENNYKTTPPVLDSDGSFFLVSKLTVDKSRWQQGNVFSCSVLHEALHSHYTQKSLSLSPG
chain 2: QTVVTQEPSFSVSPGGTVTLTCGLSSGSVSTAYFPSWYQQTPGQAPRTLIYGTNTRSSGVPDRFSGSILGNKAALTITGAQADDESDYYCVLYMGRGIVVFGGGTKLTVLGGSSGEIVLTQSPGTLSLSPGETATLSCRASQSFSSDLAWYQQKPGQAPRLLIYGASSRATGIPDRFSGSGSGTDFTLTISRLEPADFAVYYCQQYGSSPPVTFGGGTKVEIKGGGGSGGSGSGGGGSASGSGEVQLVESGGGLIQPGGSLRLSCAASGVIVSYNYMNWVRQAPGKGLEWVSVIYSGGSTFYADSVRGRFTISRDNSKNTLYLQMNSLRAEDTAVYYCARDLGPAGAFDIWGLGTMVTVSSGGSSGQVQLVESGGGVVQPGRSLRLSCAASGFTLSSYGMHWVRQAPGKGLEWVAVISYDGSNKYYVDSVKGRFTISRDNSKNTLYLQMNSLRAEDTAVYYCRWAYWELLPDYYYGMDVWGQGTTVTVSSASGGSGDKTHTCPPCPAPELLGGPSVFLFPPKPKDTLMISRTPEVTCVVVDVSHEDPEVKFNWYVDGVEVHNAKTKPREEQYNSYVVSVLTVLHQDWLNGKEYKCKVSNKALPAPIEKTISKAKGQPREPQVYTLPPCRDELTKNQVSLWCLVKGFYPSDIAVEWESNGQPENNYKTTPPVLDSDGSFFKKLTVDKSRWQQGNVFSCSVLHEALHSHYTQKSLSLSPG
As for B1, the “IC50, pseudovirus neutralization” value in experiment [1] is 5.09 ng/mL; in experiment [2] it was 18.5 ng/mL. Moreover, the “IC80, pseudovirus neutralization” value in experiment [1] stood at 28.1 ng/mL; in experiment [2], 44.2 ng/mL.
